Values quoted from earlier work as cited in patent US6727226B2 (priority 2000, dated 2004).

Sequences of proteins named here, by UniProt entry; tags and fusion partners are left off.
UniProt Q00975, whole entry, looked up: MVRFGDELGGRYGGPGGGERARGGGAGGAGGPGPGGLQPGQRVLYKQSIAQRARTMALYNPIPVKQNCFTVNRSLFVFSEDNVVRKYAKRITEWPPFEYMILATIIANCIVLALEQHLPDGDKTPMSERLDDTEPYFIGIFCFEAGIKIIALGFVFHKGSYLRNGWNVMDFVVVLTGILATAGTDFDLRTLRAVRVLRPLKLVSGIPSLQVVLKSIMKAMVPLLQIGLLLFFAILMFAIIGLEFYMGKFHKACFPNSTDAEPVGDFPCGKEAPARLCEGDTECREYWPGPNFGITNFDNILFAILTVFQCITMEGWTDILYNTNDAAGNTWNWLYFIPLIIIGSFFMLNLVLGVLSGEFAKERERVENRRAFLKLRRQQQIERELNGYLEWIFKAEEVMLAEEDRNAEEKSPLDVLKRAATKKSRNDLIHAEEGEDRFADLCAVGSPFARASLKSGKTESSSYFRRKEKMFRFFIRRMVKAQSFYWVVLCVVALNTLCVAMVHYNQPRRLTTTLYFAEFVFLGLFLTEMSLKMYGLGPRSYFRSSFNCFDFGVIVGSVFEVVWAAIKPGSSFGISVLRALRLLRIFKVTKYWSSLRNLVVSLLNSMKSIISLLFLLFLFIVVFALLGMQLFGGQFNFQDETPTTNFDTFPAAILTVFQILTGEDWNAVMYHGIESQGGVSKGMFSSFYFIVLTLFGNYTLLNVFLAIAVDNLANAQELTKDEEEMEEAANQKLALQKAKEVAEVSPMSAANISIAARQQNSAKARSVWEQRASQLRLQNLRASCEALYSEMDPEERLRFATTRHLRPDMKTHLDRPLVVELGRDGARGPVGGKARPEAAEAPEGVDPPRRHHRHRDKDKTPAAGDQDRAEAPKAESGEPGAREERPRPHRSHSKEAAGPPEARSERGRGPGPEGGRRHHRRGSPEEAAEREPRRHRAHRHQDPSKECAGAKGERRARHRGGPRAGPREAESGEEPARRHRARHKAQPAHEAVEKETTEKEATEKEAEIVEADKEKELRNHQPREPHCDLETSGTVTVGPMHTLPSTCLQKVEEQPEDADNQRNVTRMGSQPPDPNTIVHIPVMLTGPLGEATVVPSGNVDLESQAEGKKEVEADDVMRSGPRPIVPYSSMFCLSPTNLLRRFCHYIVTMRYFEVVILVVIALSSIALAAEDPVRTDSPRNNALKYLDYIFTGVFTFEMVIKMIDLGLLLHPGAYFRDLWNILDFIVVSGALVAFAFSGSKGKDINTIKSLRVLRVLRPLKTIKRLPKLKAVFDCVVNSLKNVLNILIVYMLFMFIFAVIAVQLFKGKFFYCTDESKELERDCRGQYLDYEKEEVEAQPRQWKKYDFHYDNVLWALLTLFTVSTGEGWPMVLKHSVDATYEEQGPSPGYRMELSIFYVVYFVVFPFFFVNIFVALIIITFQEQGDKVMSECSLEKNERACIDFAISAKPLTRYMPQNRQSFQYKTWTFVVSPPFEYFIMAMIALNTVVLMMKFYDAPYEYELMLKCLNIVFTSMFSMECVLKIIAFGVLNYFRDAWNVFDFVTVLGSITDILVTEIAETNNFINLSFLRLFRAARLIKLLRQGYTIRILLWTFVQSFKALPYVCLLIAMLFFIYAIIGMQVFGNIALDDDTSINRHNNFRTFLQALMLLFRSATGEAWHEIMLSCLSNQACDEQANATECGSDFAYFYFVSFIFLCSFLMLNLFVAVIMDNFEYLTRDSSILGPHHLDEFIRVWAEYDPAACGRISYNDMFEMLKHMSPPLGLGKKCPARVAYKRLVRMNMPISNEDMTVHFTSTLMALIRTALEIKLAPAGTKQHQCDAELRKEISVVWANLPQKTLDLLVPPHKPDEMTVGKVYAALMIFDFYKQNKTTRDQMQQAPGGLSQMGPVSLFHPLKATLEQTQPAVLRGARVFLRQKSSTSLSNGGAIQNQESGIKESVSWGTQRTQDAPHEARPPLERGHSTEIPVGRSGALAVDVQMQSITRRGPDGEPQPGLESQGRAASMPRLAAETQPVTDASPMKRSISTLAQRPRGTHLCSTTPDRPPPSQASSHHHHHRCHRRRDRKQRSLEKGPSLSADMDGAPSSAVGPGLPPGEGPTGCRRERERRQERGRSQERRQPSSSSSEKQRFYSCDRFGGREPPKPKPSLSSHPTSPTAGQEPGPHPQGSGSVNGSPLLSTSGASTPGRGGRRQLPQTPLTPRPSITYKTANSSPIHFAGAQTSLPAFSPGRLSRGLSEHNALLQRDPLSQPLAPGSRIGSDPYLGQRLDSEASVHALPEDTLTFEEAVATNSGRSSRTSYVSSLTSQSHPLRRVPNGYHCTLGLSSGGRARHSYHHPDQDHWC

Target: N-type calcium channel (Homo sapiens, UniProt Q00975)
Conditions: cited from earlier work

In the case of `CSCC[C@@H]1NC(=O)[C@H](CC(C)C)NC(=O)[C@H](CCCNC(=N)N)NC(=O)[C@H](CO)NC(=O)[C@@H]2CSSC[C@@H]3NC(=O)[C@H](CO)NC(=O)CNC(=O)[C@H]([C@@H](C)O)NC(=O)[C@H](CSSC[C@H](N)C(=O)N[C@@H](CCCCN)C(=O)NCC(=O)N[C@@H](CCCCN)C(=O)NCC(=O)N[C@@H](C)C(=O)N[C@@H](CCCCN)C(=O)N2)NC(=O)[C@H](CSSC[C@@H](C(N)=O)NC(=O)[C@H](CCCCN)NC(=O)CNC(=O)[C@H](CO)NC(=O)[C@H](CCCNC(=N)N)NC3=O)NC(=O)[C@H](CC(=O)O)NC(=O)[C@H](Cc2ccc(O)cc2)NC1=O`, the “tolerance or addictive properties” value (compared with opiates) is listed as “does not produce the tolerance or addictive properties of opiates” and the “potency relative to morphine” value (more potent than morphine) is listed as “approximately 1000 times”.
